Test results taken from PMC5017722.

Target: monoclonal antibody 101F (mouse)
Assay: SPR

the soluble hMPV F proteins (fully cleaved postfusion F of NL/1/00, A1, and NL/1/99, B1)
Kd: 15 to 40 nM | fold faster koff than for hRSV F: 3 fold | fold slower kon than for hRSV F: 2 fold and 5 fold

Where “and” joins values, the source holds several entries; their conditions need not be identical. Equal values may be shown once.
